Test results from article PMC8447191 (Bioconjugate Chemistry, 2021).

Assay: general procedure: Fmoc solid-phase peptide synthesis; NovaSyn TGR resin (0.22 mmol/g; 0.19 mmol/g for C-PAs); HATU/DIEA (amino acids); PyBOP/HOBt/DIEA (PEG, alkyl moieties, Cys)
Settings: whole synthesis; for isolated yield: synthesis + purification; for isolated yield / crude yield: scale of the general procedure 1.5 g resin, 0.22 mmol/g

Substance	isolated mass	isolated yield	crude mass	crude yield	crude yield (yield (synthesis))	crude yield (cleavage yield)
Cys-PEG3-E1P47	0.018 g	35%	–	–	–	–
Cys-PEG27-E1P47	0.0112 g	10.6%	–	–	–	–
Cys-PEG27-E1P47 (C-PAchol precursor)	0.011 g	10%	–	–	–	–
Cys-PEG27-E1P47 (K-PAchol precursor)	0.0094 g	9.6%	–	–	–	–
PEPTIDE1{W.I.L.E.Y.L.W.K.V.P.F.D.F.W.R.G.V.I.K.[am]}|PEPTIDE2{[Cys(CH2COOChol)].[PEG27]}$PEPTIDE1,PEPTIDE2,19:R3-2:R2$$$V2.0	–	–	0.012 g	9.2%	–	–
PEPTIDE1{W.I.L.E.Y.L.W.K.V.P.F.D.F.W.R.G.V.I.[am]}|PEPTIDE2{[Cys(CH2COOChol)].[PEG27]}$PEPTIDE1,PEPTIDE2,8:R3-2:R2$$$V2.0	–	–	–	9.2%	–	–
PEPTIDE1{W.I.L.E.Y.L.W.K.V.P.F.D.F.W.R.G.V.I.[am]}|PEPTIDE2{[diC18NSuc].[PEG27]}$PEPTIDE1,PEPTIDE2,8:R3-2:R2$$$V2.0	0.027 g	24%	–	–	–	–
PEPTIDE1{[C18NHSuc].[PEG3].W.I.L.E.Y.L.W.K.V.P.F.D.F.W.R.G.V.I.[am]}$$$$V2.0	0.021 g	27%	0.049 g	–	63%	–
PEPTIDE1{[Cys(CH2COOChol)].[PEG3].W.I.L.E.Y.L.W.K.V.P.F.D.F.W.R.G.V.I.[am]}$$$$V2.0	–	–	0.018 g	28%	–	–
PEPTIDE1{[Cys(CH2COOChol)].[PEG27].W.I.L.E.Y.L.W.K.V.P.F.D.F.W.R.G.V.I.[am]}$$$$V2.0	–	–	0.011 g	9.6%	–	–
PEPTIDE1{[diC18NSuc].[PEG3].W.I.L.E.Y.L.W.K.V.P.F.D.F.W.R.G.V.I.[am]}$$$$V2.0	0.010 g	16%	0.042 g	–	–	68%

Some peptides are written in HELM: one residue between dots, names in brackets for other building blocks, links after the first $.
